Bounds are passed on as bounds.

A short description of the assay: Selectivity index ratio of CC50 / EC50 was determined. The format is functional.

For `NC(=O)c1ncn([C@@H]2O[C@H](CO)[C@@H](O)[C@H]2O)n1` [RIBAVIRIN], the Ratio was > 47.6.

Values taken from ChEMBL document CHEMBL1129818, “Discovery of anti-influenza A virus activity of a corynanthe-type indole alkaloid, hirsutine, in vitro and the structure-activity relationship of natural and synthetic analogs” (Bioorg Med Chem Lett, 1997).
